Anti-infective test results gathered from many reports (values: NIAID ChemDB through PubChem).

Shared fields: cytotoxicity tests; cells: H9; endpoint: CC50

Rows are shuffled and stem from different studies.

| structure | result |
|---|---|
| COc1cc(CO)c(-c2c(CO)cc(OC)c(OC)c2OC)c(OC)c1OC | >250 µM |
| CC1(C)CC[C@]2(C(=O)O)CC[C@]3(C)C(=CC[C@@H]4[C@@]5(C)CC[C@H](O)C(C)(C)[C@@H]5CC[C@]43C)[C@@H]2C1 | 47.8 µM |
| COc1c(OCc2ccccc2)c(OCc2ccccc2)cc(CBr)c1-c1c(CBr)cc(OCc2ccccc2)c(OCc2ccccc2)c1OC | 30 µM |
| C=C(C)[C@@H]1CC[C@]2(C(=O)O)CC[C@]3(C)[C@H](CC[C@@H]4[C@@]5(C)CC[C@H](OC(=O)CC(C)(C)C(=O)O)C(C)(C)[C@@H]5CC[C@]43C)[C@@H]12 | 7 µM |
| COC(=O)c1cc(OC)c(OC)c(OC)c1-c1c(C(=O)OC)cc(OC)c(OC)c1OC | >200 µM |
| COc1cc2c(c(OC)c1OC)-c1c(cc3c(c1OC)OCO3)C[C@@H](C)[C@@H](C)C2 | 45 µg/mL |
| CC(C)C(NC(=O)C[C@@H]1O[C@@H]1[C@H](Cc1ccccc1)NC(=O)[C@@H](NC(=O)OCc1ccccc1)C(C)(C)S(C)(=O)=O)C(C)C | >100 µM |
| C=C(C)[C@@H]1CC[C@]2(COC(=O)CC(C)(C)CC(=O)O)CC[C@]3(C)[C@H](CC[C@@H]4[C@@]5(C)CC=CC(C)(C)[C@@H]5CC[C@]43C)[C@@H]12 | 31.9 µM |
| CCN(CC)Cc1cc2ccc3c(c2oc1=O)[C@@H](OC(=O)C12CCC(C)(C(=O)O1)C2(C)C)[C@@H](OC(=O)C12CCC(C)(C(=O)O1)C2(C)C)C(C)(C)O3 | 43.01 µM |
| CC(C)[C@@H](NC(=O)C[C@@H]1O[C@@H]1[C@H](Cc1ccccc1)NC(=O)[C@@H](NC(=O)c1ccc2ccccc2n1)C(C)(C)S(C)(=O)=O)c1ccccc1 | >100 µM |
| Cc1cn([C@H]2C[C@H](N=[N+]=[N-])[C@@H](CO)O2)c(=O)[nH]c1=O | 1875 µM |
| Nc1nc2c(ncn2[C@H]2C[C@H](O)[C@@H](CO)O2)c(=O)o1 | >30 µg/mL |
| COc1c2c(cc3c1-c1c(cc4c(c1OC)OCO4)C(OC(=O)c1ccccc1)[C@H](C)[C@@H](C)C3)OCO2 | 50 µg/mL |
| COc1c(OCc2ccccc2)c(OCc2ccccc2)cc(C=O)c1-c1c(C=O)cc(OCc2ccccc2)c(OCc2ccccc2)c1OC | 4 µM |
| C[C@H]1[C@H](C)CC[C@]2(C(=O)O)CC[C@]3(C)C(=CC[C@@H]4[C@@]5(C)CC[C@H](OC(=O)C(C)(C)CC(=O)O)C(C)(C)[C@@H]5CC[C@]43C)[C@H]12 | 30.7 µM |
| COc1cc2c(c(OC)c1OC)-c1c(cc(OC)c(OC)c1OC)C[C@H](C)[C@H](C)C2 | 9 µg/mL |
| CC(C)C(NC(=O)C[C@@H]1O[C@@H]1[C@H](Cc1ccccc1)NC(=O)[C@@H](NC(=O)CN1CCCC1)C(C)(C)S(C)(=O)=O)C(C)C | >100 µM |
| CC1(C)Oc2ccc3cc(C(Br)Br)c(=O)oc3c2[C@@H](OC(=O)C23CCC(C)(C(=O)O2)C3(C)C)[C@H]1OC(=O)C12CCC(C)(C(=O)O1)C2(C)C | 3.2 µM |
| Nc1nc2c(ncn2[C@H]2C=C[C@@H](CO)O2)c(=O)o1 | >30 µg/mL |
| CC(C)[C@H](Cc1ccccc1)NC(=O)C[C@@H]1O[C@@H]1[C@H](Cc1ccccc1)NC(=O)[C@@H](NC(=O)OCc1ccncc1)C(C)(C)S(C)(=O)=O | >100 µM |
| C=C(C)[C@@H]1CC[C@]2(C(=O)O)CC[C@]3(C)[C@H](CC[C@@H]4[C@@]5(C)CC[C@H](O)C(C)(C)[C@@H]5CC[C@]43C)[C@@H]12 | 12.9 µM |
| CC(C)[C@@H](NC(=O)C[C@@H]1O[C@@H]1[C@H](Cc1ccccc1)NC(=O)[C@@H](NC(=O)OCc1ccccc1)C(C)(C)S(C)(=O)=O)c1ccccc1 | >100 µM |
| Nc1nc2c(ncn2[C@@H]2C=C[C@H](CO)C2)c(=O)[nH]1 | >2000 µM |
| CC(=O)N[C@H](C(=O)N[C@@H](Cc1ccccc1)[C@H]1O[C@H]1CC(=O)NC(C(C)C)C(C)C)C(C)(C)S(C)(=O)=O | >100 µM |
| C[C@H]1[C@H](C)CC[C@]2(C(=O)O)CC[C@]3(C)C(=CC[C@@H]4[C@@]5(C)CC[C@H](OC(=O)CC(C)(C)C)C(C)(C)[C@@H]5CC[C@]43C)[C@H]12 | >18 µM |
| CC(C)[C@@H](NC(=O)C[C@@H]1O[C@@H]1[C@H](Cc1ccccc1)NC(=O)[C@@H](NC(=O)OCc1ccccn1)C(C)(C)S(C)(=O)=O)c1ccccc1 | >100 µM |
| C/C=C(/C)C(=O)OC1c2cc3c(c(OC)c2-c2c(cc4c(c2OC)OCO4)C[C@H](C)[C@]1(C)O)OCO3 | 50 µg/mL |

The last 2 rows once more:

structure	result
CC(C)[C@@H](NC(=O)C[C@@H]1O[C@@H]1[C@H](Cc1ccccc1)NC(=O)[C@@H](NC(=O)OCc1ccccn1)C(C)(C)S(C)(=O)=O)c1ccccc1	>100 µM
C/C=C(/C)C(=O)OC1c2cc3c(c(OC)c2-c2c(cc4c(c2OC)OCO4)C[C@H](C)[C@]1(C)O)OCO3	50 µg/mL

CCn: concentration that lowers growth or viability of the cells by n%.